# PMC9646764
# Assays:
# Cattle TFPI-Fc (cattle) = experiment: BLI; details: domain or fragment
# Dog TFPI-Fc (dog) = experiment: BLI; details: domain or fragment
substance,measurement,setting,value
TcdB2.11_(1286-1805),Kd,Cattle TFPI-Fc (cattle),310 nM
same,koff,Cattle TFPI-Fc (cattle),0.024 s⁻¹
same,Kd,Dog TFPI-Fc (dog),20.9 nM
same,koff,Dog TFPI-Fc (dog),0.00119 s⁻¹
